Results of unrelated studies side by side (data: NIAID ChemDB).

All rows: cytotoxicity tests; cells: VERO; measure: CC50

CCn is the concentration with n% toxicity to the cells. Blank or dashed fields: not listed here. Lines come from different laboratories, so protocols vary.

SMILES | read by | result
COc1ccc2c3c([nH]c2c1)C(C)=NCC3 | MTT | 11.54 µg/mL
Cc1nc(-c2ccccc2)sc1-c1csc(-c2ccc(F)cc2)n1 | sulforhodamine | >80 µM
c1ccc(-c2csc(Nc3ccc4ccccc4c3)n2)nc1 | luminescence | 9 µM
COc1c2c(cc3c1-c1cc4c(CO)c5c(cc4c[n+]1CC3)OCO5)OCO2 | sulforhodamine | >3.79 µg/mL
N=C1/C(=C/c2ccccc2O)C(=O)NN1C(=O)c1ccncc1 |  | >62.5 µg/mL
CCC(=O)NC1N=C(c2ccccc2)c2ccccc2NC1=O |  | 2.5 µM
Cc1nc(-c2ccc(Cl)cc2)sc1-c1csc(Cc2ccc(F)cc2)n1 | sulforhodamine | >80 µM
O=C(OCCCOC(=O)c1cnccn1)c1cnccn1 | MTS | >347 µM
Cc1nc(-c2ccc(F)cc2)sc1-c1csc(-c2ccc(F)cc2)n1 | sulforhodamine | >80 µM
CC1CCc2ccccc2N1Cc1nc(-c2ccsc2)no1 | fluorescence | 89.3 µM
CC[C@@H](C(C)C)[C@H](O)[C@@H](O)[C@@H](C)[C@H]1CC[C@H]2[C@@H]3CC(=O)[C@@]4(O)C[C@@H](Br)CC[C@]4(C)[C@H]3CC[C@]12C | MTT | 185 µM
O=C(NC(=O)C1N=C(c2ccccc2)c2ccccc2NC1=O)c1cc2ccccc2s1 |  | 5 µM
c1ccc(-c2csc(Nc3ccccn3)n2)cc1 | luminescence | 90 µM
Cc1ccc2nc(C)c(C(=O)NCCCC3CCCCC3)n2c1 | resazurin | 102 µM
O=C1C2=Nc3ccccc3C(c3c[nH]c4ccccc34)N2c2ccccc21 | MTS | >50 µg/mL
CCOC(=O)c1cn(CC)c2c(cc([N+](=O)[O-])c3cccnc32)c1=O | luminescence | >100 µg/mL
CC(=O)NC[C@@H]1OC(=O)N2c3ccc(C4=CCN(CCO)CC4)cc3OC[C@@H]12 | resazurin | 26.77 µg/mL
CC(C)(C)OC(=O)N1[C@@H]2CC(n3cnc4c(N)ncnc43)[C@H]1c1ccccc12 | MTS | >132 µM
C[C@@H](O)C1=C[C@@H](n2cnc3c(N)ncnc32)[C@H](O)[C@@H]1O | MTT / neutral red | 6.7 µg/mL
CC[C@@H](C(C)C)[C@@H](O)[C@H](O)[C@@H](C)[C@H]1CC[C@H]2[C@@H]3CC(=O)[C@@]4(O)C[C@@H](O)CC[C@]4(C)[C@H]3CC[C@]12C | MTT | 819 µM
COc1cccc(C(=O)NC2N=C(c3ccccc3)c3ccccc3NC2=O)c1 |  | 2 µM
Nc1cc2c(ncn2[C@@H]2O[C@H](CO)[C@@H](O)[C@H]2O)c(=O)[nH]1 | neutral red | 30 µg/mL
O=C1O[C@@H](CNc2ccon2)[C@@H]2COc3cc(C4=CCN(CCO)CC4)c(F)cc3N12 | resazurin | >64 µg/mL
COC1c2c(ccc3c2OCO3)-c2ccc3cc4c(cc3c2N1C)OCO4 | sulforhodamine | >3.63 µg/mL
O=C1C(c2c(O)[nH]c3ccccc23)=Nc2ccccc21 | MTS | >32 µg/mL
CC[C@@H](C(C)C)[C@H](O)[C@@H](O)[C@@H](C)[C@H]1CC[C@H]2[C@@H]3CC(=O)[C@@]4(O)C[C@@H](OC(C)=O)CC[C@]4(C)[C@H]3CC[C@]12C | MTT | 461 µM
[O-][n+]1c2ccccc2nc2ccccc21 |  | >10 µg/mL
O=c1[nH]cnc2c([C@@H]3O[C@H](CO)[C@@H](O)[C@H]3O)[nH]nc12 | neutral red | 43 µg/mL
COC(=O)NC[C@@H]1OC(=O)N2c3cc(F)c(C4=CCN(CCO)CC4)cc3OC[C@@H]12 | resazurin | 57.43 µg/mL
c1cc2c(cnc3c4cc5c(cc4ccc23)OCO5)c2c1OCO2 | sulforhodamine | >0.32 µM
CC(=O)c1csc(Nc2ccccn2)n1 | luminescence | >100 µM
CCCCCCCCCCCCSC(N)=S |  | 40.7 µg/mL
CC(C)(C)OC(=O)N1[C@H]2CC[C@@H]1C(Nc1ncnc(Cl)c1N)C2 | MTS | >147 µM
Cc1ccc(Nc2nc3c(s2)C(=O)c2ccccc2C3=O)c(C)c1 |  | 5 µg/mL
O=C(Nc1ccc(Cl)cc1)NC1N=C(c2ccccc2)c2ccccc2NC1=O |  | 3 µM
CCCCCC(=O)N1C[C@H]2CC(n3cnc4c(Cl)ncnc43)[C@@H]1C2 | MTS | >71 µM
c1ccc2c(c1)nc1cc(NC3CCCCC3)c(=NC3CCCCC3)cc-1n2C1CCCCC1 |  | 28.33 µg/mL
O=c1cnn([C@@H]2O[C@H](CO)[C@@H](O)[C@H]2O)c(=O)[nH]1 | neutral red | 58 µg/mL
Cc1cn2c(C(=O)NCc3cccc(C(F)(F)F)c3)c(C)nc2s1 | fluorescence | 59 µM
CC(=O)OC1CC2C(C)(C)CCCC2(C)C2C(=O)C(O)=C(C(C)C)C(=O)C12 |  | 0.5 µg/mL
CO[C@H]1/C=C/O[C@@]2(C)Oc3c(C)c(O)c4c(O)c(c(/C=N/N5CCN(C)CC5)c(O)c4c3C2=O)NC(=O)/C(C)=C\C=C\[C@H](C)[C@H](O)[C@@H](C)[C@@H](O)[C@@H](C)[C@H](OC(C)=O)[C@@H]1C | fluorescence | 120 µM
CCOc1nnc(NS(=O)(=O)c2ccc(N)cc2)o1 | fluorescence | >100 µM
CO[C@H]1/C=C/O[C@@]2(C)Oc3c(C)c(O)c4c(O)c(c(/C=N/N5CCN(C)CC5)c(O)c4c3C2=O)NC(=O)/C(C)=C\C=C\[C@H](C)[C@H](O)[C@@H](C)[C@@H](O)[C@@H](C)[C@H](OC(C)=O)[C@@H]1C | absorbance | >100 µM
Nc1ccn([C@@H]2C=C(CO)[C@@H](O)[C@@H]2O)c(=O)n1 | neutral red | >32 µg/mL
CCOC(=O)c1cnccn1 | MTS | >657 µM
Cc1nn(C(=S)S)c(C)c1N=Nc1ccccc1Cl |  | >10 µg/mL
CO[C@H]1/C=C/O[C@@]2(C)Oc3c(C)c(O)c4c(O)c(c(/C=N/N5CCN(C)CC5)c(O)c4c3C2=O)NC(=O)/C(C)=C\C=C\[C@H](C)[C@H](O)[C@@H](C)[C@@H](O)[C@@H](C)[C@H](OC(C)=O)[C@@H]1C | XTT | >300 µg/mL
O=C(CO)N1CC=C(c2cc3c(cc2F)N2C(=O)O[C@@H](CNc4ccon4)[C@@H]2CO3)CC1 | resazurin | >64 µg/mL
O=C1C2=Nc3ccccc3C(O)N2c2ccccc21 |  | 5.4 µg/mL
CCOC(=O)c1cn(C)c2c(cc([N+](=O)[O-])c3cccnc32)c1=O | luminescence | >100 µg/mL
CC(C)(C)OC(=O)N1[C@@H]2CC(n3cnc4c(Cl)ncnc43)[C@H]1c1ccccc12 | MTS | 12 µM
CCN(CC)c1ccc2nc3ccc(N=Nc4c(O)ccc5ccccc45)cc3[n+](-c3ccccc3)c2c1.[Cl-] |  | 0.9 µg/mL
CC[C@@H](C(C)C)[C@H](O)[C@@H](O)[C@@H](C)[C@H]1CC[C@H]2[C@@H]3CC(=O)[C@H]4C[C@@H](Br)CC[C@]4(C)[C@H]3CC[C@]12C | MTT | 152 µM
O=C(OCc1ccccc1)c1coc(-c2ccccc2)n1 | MTS / absorbance | >128 µM
CN(Cc1nnc(-c2ccco2)o1)Cc1c(F)cccc1Cl | fluorescence | >100 µM
CC(C)(C)OC(=O)N1[C@@H]2CC(Nc3ncnc(Cl)c3N)[C@H]1c1ccccc12 | MTS | >112 µM
CCCN(CCC)CCCOC(=O)c1ccc2oc3ccc(C(=O)OCCCN(CCC)CCC)cc3c2c1 |  | 5.35 µg/mL
CCCCCCOC(=O)c1cnccn1 | MTS | >480 µM
Cc1ccc(NNc2cc(=O)[nH]c(=O)[nH]2)cc1Cl |  | 4.7 µg/mL
Cc1cn2c(C(=O)NCc3ccc(N4CCN(c5ccc(C(F)(F)F)cn5)CC4)c(F)c3)c(C)nc2s1 | fluorescence | >100 µM
Cc1c2cnccc2c(C)c2c1c1ccccc1n2CCCCCCNCc1ccccc1 |  | 0.69 µg/mL
CO[C@H]1/C=C/O[C@@]2(C)Oc3c(C)c(O)c4c(O)c(c(/C=N/N5CCN(C)CC5)c(O)c4c3C2=O)NC(=O)/C(C)=C\C=C\[C@H](C)[C@H](O)[C@@H](C)[C@@H](O)[C@@H](C)[C@H](OC(C)=O)[C@@H]1C | sulforhodamine | >80 µM
O=C(NNC(=S)Nc1ccc(S(=O)(=O)N2CCCCC2)cc1)c1ccncc1 |  | >62.5 µg/mL
O=C(CO)N1CC=C(c2cc3c(cc2F)N2C(=O)O[C@@H](CNC(=O)C(F)(F)F)[C@@H]2CO3)CC1 | resazurin | >64 µg/mL
[CH3][Sn]([CH3])([Cl])[Br].c1cnc2c(c1)ccc1cccnc12 |  | 0.77 µg/mL
Cc1cn2c(C(=O)NCc3ccc(Oc4ccc(F)cc4)cc3)c(C)nc2s1 | fluorescence | 13.9 µM
CC1(C)OC(=O)C(=Cc2ccc([N+](=O)[O-])s2)C(=O)O1 |  | 4.17 µg/mL
Nc1nncc2c([C@H]3CC[C@@H](CCP(=O)(O)O)C3(F)F)c[nH]c12 | MTT / absorbance | 15.9 µM
OC(c1cc(C23CC4CC(CC(C4)C2)C3)nc2c(Cl)cc(Cl)cc12)C1CCCCN1 |  | 2.1 µg/mL
Cc1cc(C)c2cc(C(=O)NC3CCCCC3)[nH]c2c1 | resazurin | >200 µM
C=CCCCCn1c2ccccc2c2c(C)c3cnccc3c(C)c21 |  | 5.54 µg/mL
FC(F)(F)c1ccccc1Nc1nc(C23CC4CC(CC(C4)C2)C3)cs1 | luminescence | 39 µM
CN(C)C(=O)Nc1c([N+](=O)[O-])cc(C(F)(F)F)cc1[N+](=O)[O-] |  | 36 µg/mL
CCc1nc2ccc(Cl)cn2c1C(=O)NCc1ccc(N2CCC(c3ccc(OC(F)(F)F)cc3)CC2)cc1 | luminescence | >100 µM
CN(C)c1cccc2c(Cl)c(Cl)c3cccc(N(C)C)c3c12 |  | >10 µg/mL
Cc1cn2c(C(=O)NCc3ccc(N4CCC(c5ccc(OC(F)(F)F)cc5)CC4)cc3)c(C)nc2s1 | fluorescence | >100 µM

Repeating the final 6 entries:

{"SMILES": "C=CCCCCn1c2ccccc2c2c(C)c3cnccc3c(C)c21", "result": "5.54 µg/mL"}
{"SMILES": "FC(F)(F)c1ccccc1Nc1nc(C23CC4CC(CC(C4)C2)C3)cs1", "read by": "luminescence", "result": "39 µM"}
{"SMILES": "CN(C)C(=O)Nc1c([N+](=O)[O-])cc(C(F)(F)F)cc1[N+](=O)[O-]", "result": "36 µg/mL"}
{"SMILES": "CCc1nc2ccc(Cl)cn2c1C(=O)NCc1ccc(N2CCC(c3ccc(OC(F)(F)F)cc3)CC2)cc1", "read by": "luminescence", "result": ">100 µM"}
{"SMILES": "CN(C)c1cccc2c(Cl)c(Cl)c3cccc(N(C)C)c3c12", "result": ">10 µg/mL"}
{"SMILES": "Cc1cn2c(C(=O)NCc3ccc(N4CCC(c5ccc(OC(F)(F)F)cc5)CC4)cc3)c(C)nc2s1", "read by": "fluorescence", "result": ">100 µM"}